Experimental data: PubChem BioAssay AID1822 (The Scripps Research Institute Molecular Screening Center, 2009)
The list shows a part of the results, in another mix than the full data. Active and inactive are the calls of the source.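 The calls were made as follows: active = inhibition above the campaign mean inhibition over all tested compounds plus 3 SD (cut at about 28% in these data); inactive = the rest.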

Tested on: M18 aspartyl aminopeptidase (Plasmodium falciparum 3D7)
Test: PfM18AAP inhibitors, malaria aminopeptidase, primary screen, biochemical, QFRET, recombinant enzyme (AID 1822);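 also: 0% = plate median of test compound wells and 100% = 2 mM ZnCl2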
Details: H-Glu-NHMec fluorogenic cleavage, at 7.35 µM, active compounds read high

SMILES | inhibition
Cc1ccc(C(=O)OC2CN3CCC2CC3)cc1 (stereo unspecified) | inactive: -1.12%
CC1CCC(C(C)C)C(OP(=O)(Nc2ccccn2)c2ccccc2)C1 (stereo unspecified) | inactive: 7.61%
O=P1(Nc2ccc(Br)cn2)COc2ccccc2OC1 | inactive: 0.72%
O=[As](O)(c1cccs1)c1cccs1 | inactive: 3.94%
Cc1ccc(OCC(=O)OC2CN3CCC2CC3)cc1 (stereo unspecified) | inactive: 2.24%
Nc1cccc([As](=O)(O)c2ccccc2)c1 | inactive: -0.38%
O=P1(Nc2ncccn2)COc2ccccc2OC1 | inactive: 1.66%
Clc1n[nH]nc1-c1nn[nH][15n]1 | inactive: -0.93%
CC(C)(C)C(=O)NC(Sc1ncccn1)C(Cl)(Cl)Cl (stereo unspecified) | inactive: 24.5%
CCOP(=O)(Nc1ccc(C)cn1)OCC | inactive: 2.18%
CCC1=CC2Cc3nc4ccc(Cl)cc4c(N)c3C(C1)C2 (stereo unspecified) | inactive: 2.75%
O=P1(Nc2ccccn2)COc2ccccc2OC1 | inactive: 3.44%
CCOP(=O)(NC(=NC(C)c1ccccc1)NC(C)c1ccccc1)OCC (stereo unspecified) | inactive: -8.05%
O=[As](O)(c1ccccc1Br)c1ccccc1Br | inactive: -13.8%
CC1(CBr)Cn2c(nc3ccccc3c2=O)S1 (stereo unspecified) | inactive: -4.53%
CN(C(=O)Cc1ccc(Cl)c(Cl)c1)[C@@H]1CCCC[C@H]1N1CCCC1 | inactive: -1.12%
CC(C)/C=N\N=C(\N)N[N+](=O)[O-] | inactive: 22.7%
O=[As](O)(c1cccc(O)c1)c1cccc(O)c1 | inactive: -8.29%

SMILES | inhibition
Cc1cccc(OCC(=O)OC2CN3CCC2CC3)c1 (stereo unspecified) | inactive: -13.8%
COc1cc(C(=O)NCC2(N3CCOCC3)CCCCC2)cc(Cl)c1OC(C)C | inactive: -0.18%
O=[As](O)(O)c1cccnc1 | inactive: -16.1%
CS(=O)(=O)c1ccc(Cl)c(NC(=O)COC(=O)C(O)(c2ccccc2)c2ccccc2)c1 | inactive: 0.47%
O=C(OC1CN2CCC1CC2)c1ccc(Cl)cc1 (stereo unspecified) | inactive: 0.21%
COc1cc(C2NCCC3(OCCO3)C2(C)C)cc(OC)c1OC (stereo unspecified) | inactive: 0.98%
CCOP(=O)(Nc1cccc2ccccc12)OCC | inactive: -11.6%
CCCOP(=S)(Nc1nc(N)cc(=O)[nH]1)OCCC | inactive: -5.83%
Nc1cccc2c([As](=O)(O)O)cccc12 | inactive: 20.8%
Cc1ccc(NCCc2c([N+](=O)[O-])cc([N+](=O)[O-])cc2[N+](=O)[O-])cc1 | inactive: 14%
O=C(O)COc1ccc([As](=O)(O)O)cc1[N+](=O)[O-] | inactive: 4.64%
Nc1ccccc1[As](=O)(O)c1ccccc1 | inactive: 2.74%
CS(=O)(=O)c1cc([N+](=O)[O-])c2no[n+]([O-])c2c1 | inactive: 6.52%
CCOP1(=S)c2c(C)nn(CCC#N)c2N=C(c2ccccc2F)N1C (stereo unspecified) | inactive: 0.13%
O=P(Nc1nccs1)(c1ccccc1)c1nc2ccccc2s1 (stereo unspecified) | inactive: 8.08%
O=P(Nc1nccs1)(Oc1ccccc1)Oc1ccccc1 | inactive: 3.04%
O=[N+]([O-])c1ccc2c(c1)nnn2O | inactive: -12.3%
CCOP1(=S)c2c(C)nn(CCC#N)c2N=C(c2ccc(F)cc2)N1C (stereo unspecified) | inactive: 0.45%
